Laboratory results taken from patent publication US20080261241A1, “Targeted ubiquitination of proteins and screening methods using a new class of ubiquitin ligase proteins” (INSTITUT PASTEUR, priority 2007, published 2008).

Protein sequences, listed by entry. Tags and fused reporters are not part of them.
UniProt P62837, whole entry, looked up: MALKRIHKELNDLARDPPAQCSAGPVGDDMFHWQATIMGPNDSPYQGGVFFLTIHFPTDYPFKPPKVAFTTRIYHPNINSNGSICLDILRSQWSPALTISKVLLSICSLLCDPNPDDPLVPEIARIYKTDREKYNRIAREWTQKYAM

Target: His-tagged UbcH5B (UniProt P62837)

Substance: GST-IpaH9.8-C337A
- removal of ubiquitin from ubiquitinated UbcH5B, immunoblot with streptavidin-peroxidase: This activity was not observed when GST-IpaH9.8-C337A was added to the reaction mixture
